Source: publication PMC10239501

Molecular target: T1, OmpR (unglycosylated) (Salmonella enterica) (UniProt P0AA20)
T1 sequence (looked up, limits assumed): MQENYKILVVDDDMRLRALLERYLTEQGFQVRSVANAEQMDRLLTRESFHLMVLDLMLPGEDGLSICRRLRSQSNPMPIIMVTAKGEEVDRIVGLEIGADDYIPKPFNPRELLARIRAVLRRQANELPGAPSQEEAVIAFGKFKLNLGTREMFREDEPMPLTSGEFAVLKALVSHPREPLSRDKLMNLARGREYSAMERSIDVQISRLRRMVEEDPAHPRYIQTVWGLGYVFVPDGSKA
Assay: EMSA
Conditions: recombinant protein, protein details: His, label: 5' Alexa-fluor (forward primer), probe letters rebuilt from the primers and the genome

TTATTACCCTCATTGGTTTTTTTATATGACACCTGCCACTGCCGTCAATAAATTCCGTCAATAAAACTTTACAGAAATATTGATGAGAGTTTGGTGTCTTTATGTGTCTGACAGGCATCTTTCCATTCAAACTAACGTTTCGCTACCGTGAAAGTGCTACAAAGATAAAGATTTGGTTTCAAAAGGAAATAATATGTAAACAAATGTTATTTTTACGGAACTTTGTGAACAACGTCAAACTTCCCCTGAGTTATCGTTTTGATTTGATCGTTTTTCTTTTATATCCATGATTTTATTGAATTTATTTGTTCGCGACACCGTTGTGCCTGAAAAAGCAGCTGACGAGCTATTTCATAAAAATAGCCATTTAGAAGTCTGGATGTCTGAAATTGTGGTGAAAAATTGTGCTATTAGAGCAGAAAAATCTAATCCGCAATAAAATTAAGGATTAATTTTTATGTGTAAATATTTTCGTGAAATATACAGTAACAAGATGTGGTAATTCAGAGGGTTGTAATTAATTTTATTTACTTATTGATAATAAAACTGACATTCAGGCGAAAAAAAAGGCCAGCATAGCTGGCCTTGAGTGTGACGTAAAAA (double strand) [ompF promoter region]
binding result: binds

The exact form of at least one protein or probe is not confirmed. Where a protein sequence is shown, tags need not be part of it.
